Anti-infective test results gathered from many reports (values: NIAID ChemDB through PubChem).

All rows: target-level tests

An empty or dashed field is not shown.

structure	read-out	strain	organism	protein	dose	read by	mutations	result
CC(C)(C#Cc1ccc(NC(=O)CSc2nnnn2-c2cc(C(F)(F)F)ccc2Cl)c(Cl)c1F)NC(=O)c1cc[n+]([O-])cc1	IC50	WT	HIV-1	Reverse transcriptase		PicoGreen / fluorescence		<1 µM
CC[C@@H](C)[C@H](NC(=O)COc1cccc2ccccc12)C(=O)N[C@@H](Cc1ccccc1)[C@H](O)C(=O)N1CSC[C@H]1C(=O)NC(C)(C)C	inhibition		HIV-1	Protease	0.05 µM			93%
CC(C)(C)c1ccc(-n2nnnc2SCC(=O)Nc2ccc(S(=O)(=O)NCc3ccccc3)cc2Cl)c(Cl)c1	IC50		HIV-1	Reverse transcriptase		PicoGreen / fluorescence	RT-K103 Y181C	<1 µM
CS(=O)(=O)c1ccc(CNC(=O)c2cn3c(c(O)c2=O)C(=O)N(Cc2ccc(F)cc2)CC3)cc1	IC50		HIV-1	Integrase		ELISA		0.01–0.1 µM
CC(C)(CCNC(=S)NCc1ccco1)CN(C[C@@H](O)[C@H](Cc1ccccc1)NC(=O)O[C@H]1CO[C@H]2OCC[C@H]21)S(=O)(=O)c1ccc2c(c1)OCO2	Ki		HIV-1	Protease		fluorescence		<0.001 µM
CC(C)(C)c1ccc(-n2nnnc2SCC(=O)Nc2ccc(-c3ccc(OCCN4CCCCC4)cc3)cc2Cl)c(Cl)c1	IC50		HIV-1	Reverse transcriptase		PicoGreen / fluorescence	RT-K103 Y181C	<1 µM
CCCCOC(=O)NCCCC(C)(C)CN(C[C@@H](O)[C@H](Cc1ccccc1)NC(=O)O[C@H]1CO[C@H]2OCC[C@H]21)S(=O)(=O)c1ccc2c(c1)OCO2	Ki		HIV-1	Protease		fluorescence		<0.001 µM
O=C1c2c(O)c(=O)c(-c3nccs3)cn2CCN1Cc1cccc(Cl)c1F	IC50		HIV-1	Integrase		ELISA		<0.01 µM
CC(C)(CCN)CN(C[C@@H](O)[C@H](Cc1ccccc1)NC(=O)O[C@H]1CO[C@H]2OCC[C@H]21)S(=O)(=O)c1cccc(N)c1	Ki		HIV-1	Protease		fluorescence		<0.001 µM
Nc1nc2c(ncn2[C@H]2CO[C@@H](COP(=O)(O)OP(=O)(O)OP(=O)(O)O)O2)c(=O)[nH]1	Ki		HIV	Reverse transcriptase		radiometric	RT-K103N	0.02 µM
CN(C)C(=O)NCCCCC(C)(C)CN(C[C@@H](O)[C@H](Cc1ccccc1)NC(=O)O[C@H]1CO[C@H]2OCC[C@H]21)S(=O)(=O)c1cccc(N)c1	Ki		HIV-1	Protease		fluorescence		<0.001 µM
COCC(=O)Nc1cn2ccn(Cc3ccc(F)cc3)c(=O)c2c(O)c1=O	IC50		HIV-1	Integrase		ELISA		0.01–0.1 µM
Nc1nc2c(ncn2[C@H]2CC[C@@H](COP(=O)(O)OP(=O)(O)OP(=O)(O)O)O2)c(=O)[nH]1	IC50		HIV	Reverse transcriptase		nucleotide incorporation	RT-W266S	>2.5 µM
CC(C)(C#Cc1ccc(NC(=O)CSc2nnc(C(F)(F)F)n2-c2ccc(C3CC3)cc2Cl)c(Cl)c1)NC(=O)c1cc[n+]([O-])cc1	IC50		HIV-1	Reverse transcriptase		PicoGreen / fluorescence	RT-K103 Y181C	<1 µM
C=C(C)OC(=O)NCCCCC(C)(C)CN(C[C@@H](O)[C@H](Cc1ccccc1)NC(=O)O[C@H]1CO[C@H]2OCC[C@H]21)S(=O)(=O)c1ccc2c(c1)OCO2	Ki		HIV-1	Protease		fluorescence		<0.001 µM
CC(C)(C)c1ccc(-n2nnnc2SCC(=O)Nc2ccc(NC(=O)Cc3ccccc3[N+](=O)[O-])cc2Cl)c(Cl)c1	IC50	WT	HIV-1	Reverse transcriptase		PicoGreen / fluorescence		<1 µM
CC[C@@H](C)[C@H](NC(=O)C1CCCN1C(=O)[C@@H](O)[C@H](Cc1ccccc1)NC(=O)[C@H](CC(C)C)NC(=O)CCc1ccccc1)C(=O)N[C@H](C(N)=O)C(C)C	inhibition		HIV-1	Protease	5 µM			68.7%
CC(C)(C)c1ccc(-n2nnnc2SCC(=O)Nc2ccc(S(=O)(=O)NCCO)cc2Cl)c(Cl)c1	IC50	WT	HIV-1	Reverse transcriptase		PicoGreen / fluorescence		<1 µM
CC(C)(C)NC(=O)[C@@H]1CSCN1C(=O)[C@@H](O)[C@H](Cc1ccccc1)NC(=O)[C@H](CC(N)=O)NC(=O)COc1cccc2ccccc12	IC50		HIV-1	Protease				<0.05 µM
O=C1c2c(O)c(=O)c(-c3nccs3)cn2CCN1CCCc1cccc(Cl)c1	IC50		HIV-1	Integrase		ELISA		0.01–0.1 µM
CCCNC(=O)OCCCC(C)(C)CN(C[C@@H](O)[C@H](Cc1ccccc1)NC(=O)O[C@H]1CO[C@H]2OCC[C@H]21)S(=O)(=O)c1ccc2c(c1)OCO2	Ki		HIV-1	Protease		fluorescence		<0.001 µM
CC(C)(C#Cc1ccc(NC(=O)CSc2nnnn2-c2cc(C3CC3)ccc2Cl)c(Cl)c1)C(=O)O	IC50		HIV-1	Reverse transcriptase		PicoGreen / fluorescence	RT-K103 Y181C	<1 µM
CC(C)(C)NC(=O)C1N(C(=O)[C@@H](O)[C@H](Cc2ccccc2)NC(=O)[C@H](CS(C)(=O)=O)NC(=O)COc2cccc3ccccc23)CSC1(C)C	IC50		HIV-1	Protease				<0.05 µM
CC(C)(C)c1ccc(-n2nnnc2SCC(=O)Nc2ccc(NC(=O)Cc3ccc([N+](=O)[O-])cc3)cc2Cl)c(Cl)c1	IC50	WT	HIV-1	Reverse transcriptase		PicoGreen / fluorescence		<1 µM
COC(=O)NCCCCC(C)(C)CN(C[C@@H](O)[C@H](Cc1ccccc1)NC(=O)O[C@H]1CO[C@H]2OCC[C@H]21)S(=O)(=O)c1cccc(N)c1	Ki		HIV-1	Protease		fluorescence		<0.001 µM
Cc1cc(-c2ccc(NC(=O)CSc3nnnn3-c3ccc(C(C)(C)C)cc3Cl)c(Cl)c2)ccc1OCC(=O)O	IC50	WT	HIV-1	Reverse transcriptase		PicoGreen / fluorescence		<1 µM
CC(C)(CCCNC(=O)C1CCC1)CN(C[C@@H](O)[C@H](Cc1ccccc1)NC(=O)O[C@H]1CO[C@H]2OCC[C@H]21)S(=O)(=O)c1ccc2c(c1)OCO2	Ki		HIV-1	Protease		fluorescence		<0.001 µM
Cc1ccc(-n2nnnc2SCC(=O)Nc2ccc(-c3cocn3)cc2Cl)c(Cl)c1	IC50		HIV-1	Reverse transcriptase		PicoGreen / fluorescence	RT-K103 Y181C	<1 µM
CC(C)(CCNC(=O)CO)CN(C[C@@H](O)[C@H](Cc1ccccc1)NC(=O)O[C@H]1CO[C@H]2OCC[C@H]21)S(=O)(=O)c1ccc2c(c1)OCO2	Ki		HIV-1	Protease		fluorescence		<0.001 µM
CCC(C#Cc1ccc(NC(=O)CSc2nnnn2-c2ccc(C3CC3)cc2Cl)c(Cl)c1)(CC)NC(=O)OC(C)(C)C	IC50	WT	HIV-1	Reverse transcriptase		PicoGreen / fluorescence		<1 µM
CCOC(=O)NCCCCC(C)(C)CN(C[C@@H](O)[C@H](Cc1ccccc1)NC(=O)O[C@@H]1CO[C@@H]2OCC[C@@H]21)S(=O)(=O)c1ccc2c(c1)OCO2	Ki		HIV-1	Protease		fluorescence		<0.001 µM
CC[C@@H](C)[C@H](NC(=O)[C@@H]1CCCN1C(=O)[C@@H](O)[C@H](CC1CCCCC1)NC(=O)[C@H](COC)NC(=O)CCc1ccccc1)C(=O)N[C@H](C(N)=O)C(C)C	inhibition		HIV-1	Protease	5 µM			89.4%
CNc1cccc(S(=O)(=O)N(C[C@@H](O)[C@H](Cc2ccccc2)NC(=O)O[C@H]2CO[C@H]3OCC[C@H]32)CC(C)(C)CCNS(C)(=O)=O)c1	Ki		HIV-1	Protease		fluorescence		<0.001 µM
CC(C)(C#Cc1ccc(NC(=O)CSc2nnnn2-c2ccc(C3CC3)cc2Cl)c(Cl)c1)C(=O)NCCN1CCCC1	IC50	WT	HIV-1	Reverse transcriptase		PicoGreen / fluorescence		<1 µM
NC(=O)C[C@H](NC(=O)OCc1ccccc1)C(=O)N[C@@H](Cc1ccccc1)[C@H](O)C(=O)N1CCC[C@H]1C(=O)NC1CCCCC1	IC50		HIV-1	Protease				<5 µM
COc1ccc(OC(=O)NCCCC(C)(C)CN(C[C@@H](O)[C@H](Cc2ccccc2)NC(=O)O[C@H]2CO[C@H]3OCC[C@H]32)S(=O)(=O)c2ccc3c(c2)OCO3)cc1	Ki		HIV-1	Protease		fluorescence		<0.001 µM

Conditions beyond the fields shown may differ between rows. Two numbers with a dash give a range or band. ICn: concentration for n% inhibition. Inhibition is in % at the dose shown (toxicity tests: loss of growth or viability).